Results as given in patent US5821331A (Eli Lilly and Company, priority 1996, dated 1998).

assay: peptide synthesis; conditions: coupling step

Point of comparison: “N-tert-Butyloxycarbonyl-L-valinyl-L-leucinyl-L-phenylalanylglycinenitrile”, step yield 76%. Against it:
- N-tert-Butoxycarbonyl-L-valinyl-L-leucinyl-L-phenylalanyl-L-glutarimide — lower, 68%

same assay, conditions: late stage modification step

Point of comparison: “N-Acetyl-L-valinyl-L-leucinyl-L-phenylalanyl-L-glutarimide”, step yield 72%. Against it:
- N-tert-Butyloxycarbonyl-L-valinyl-L-leucinyl-L-phenylalanylglycinal — lower, 21%
- N-(t-butoxycarbonyl-L-valinyl-L-leucinyl-L-phenylalanyl)-L-gluatamine aldehyde — the same, 72%
- N-(L-Valinyl-L-leucinyl-L-phenylalanyl)-L-glutamine aldehyde — lower, 5%
